Results on 2 substances are retold here after publication PMC3829993.

Data set [1] relates to NC(=O)C1=CN([C@@H]2O[C@H](COP(=O)(O)OP(=O)(O)OC[C@H]3O[C@@H](n4cnc5c(N)ncnc54)[C@H](O)[C@@H]3O)[C@@H](O)[C@H]2O)C=CC1. The experiment in a line: purified protein. Conditions: varied: cofactor.
In data set [2] the test system is NC(=O)C1=CN([C@@H]2O[C@H](COP(=O)(O)OP(=O)(O)OC[C@H]3O[C@@H](n4cnc5c(N)ncnc54)[C@H](OP(=O)(O)O)[C@@H]3O)[C@@H](O)[C@H]2O)C=CC1. The data set is described as follows: purified protein. The conditions noted are these: varied: cofactor.

As to “SMFMO (Stenotrophomonas maltophilia K279a; H202T)”, in data set [1], the Km is 14.1 ± 2.9 M x 10^-6, the kcat amounted to 0.012 ± 0.0008 s⁻¹ and the kcat/Km was found to be 857 M⁻¹ s⁻¹. Also, in data set [2], the Km is 4.2 ± 0.7 M x 10^-6, the kcat stood at 0.012 ± 0.0004 s⁻¹ and the kcat/Km worked out at 3000 M⁻¹ s⁻¹.

As for “SMFMO (Stenotrophomonas maltophilia K279a; Q201R)”, in data set [1], the Km is reported as 21.2 ± 4.3 M x 10^-6, the kcat stood at 0.031 ± 0.003 s⁻¹ and the kcat/Km turned out to be 1480 M⁻¹ s⁻¹. In addition, in data set [2], the Km is listed as 8.3 ± 1.6 M x 10^-6, the kcat is 0.007 ± 0.0005 s⁻¹ and the kcat/Km was found to be 875 M⁻¹ s⁻¹.

Broadly, the kcat is the number of substrate molecules converted per active site and unit of time at saturation. The kcat/Km is the turnover number divided by the Michaelis constant.
